Experimental data as given in paper PMC5465072 (Scientific Reports, 2017).

Assay: general procedure: Fmoc solid-phase peptide synthesis; Wang resin preloaded with the first amino acid residue; DIC/HOBt
Details: whole synthesis; for isolated yield: scale of the general procedure 0.1 mmol

Row | Substance | isolated mass | isolated yield
1 | PEPTIDE1{C.L.R.F.T}$$$$V2.0 | 54 mg | 34%
2 | PEPTIDE1{C.L.R.[hPhe].T}$$$$V2.0 | 63 mg | 37%
3 | PEPTIDE1{H.P.C.N.A.M.F}$$$$V2.0 | 45 mg | 22%
4 | PEPTIDE1{C.M.N.H.F.P.A}$$$$V2.0 | 56 mg | 27%
5 | PEPTIDE1{C.L.R.[4-NO2-F].T}$$$$V2.0 | 65 mg | 40%
6 | PEPTIDE1{C.L.R.[4-CN-F].T}$$$$V2.0 | 60 mg | 36%
7 | PEPTIDE1{C.L.R.[4-Cl-F].T}$$$$V2.0 | 19 mg | 11%
8 | PEPTIDE1{C.L.R.[3-NO2-Y].T}$$$$V2.0 | 66 mg | 38%
9 | PEPTIDE1{C.L.R.[Phg].T}$$$$V2.0 | 55 mg | 35%
10 | PEPTIDE1{C.L.R.P.T}$$$$V2.0 | 21.0 mg | 15%
11 | PEPTIDE1{C.L.R.[dF].T}$$$$V2.0 | 52 mg | 33%

HELM strings list residues between dots; [ac] is acetyl, [am] amide, other brackets name non-standard units.
